PubChem BioAssay AID624099 | ICCB-Longwood | 2012
Purpose: 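Host factors E2 relies on to silence an HPV18 LCR reporter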 (primary screen). System: human C33A cervical carcinoma cells (HPV-negative) stably expressing BPV1 E2 and an HPV18 LCR luciferase reporter. Reagents: siRNA pool against human genes, 40 nM. Duration: 72 h. Measurement: 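HPV18 LCR reporter light per well, converted to plate-wise z-scores that exclude control wells, and averaged over triplicate plates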. Reading the numbers: mean z-score and z-score: higher = stronger reporter signal, weaker E2 silencing. Hit rule: 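Mean z ≥ 2 together with z ≥ 2 in two or more of the three replicates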.
Here is an unselected part of about 21,000 deposited reagents. Over the whole deposit, 497 (2.4%) were called active. 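Higher z means weaker E2 silencing; only reporter increases were scored, and knock-downs that hurt cell survival may mask genuine repressor factors.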 Entries without a mark were called inactive. The numbers tell different reagents against one gene apart.

PARK7 (Parkinsonism associated deglycase) gave mean z-score 1.53; z-score, replicate A = 1.86; z-score, replicate B = 1.5; z-score, replicate C = 1.23. Silencing of PPP1R15A (protein phosphatase 1 regulatory subunit 15A) gave: mean z-score -1.26; z-score, replicate A = -0.89; z-score, replicate B = -1.26; z-score, replicate C = -1.64. HLTF (helicase like transcription factor) showed mean z-score 0.03; z-score, replicate A = 0.12; z-score, replicate B = 0.21; z-score, replicate C = -0.25. For ITGAL (integrin subunit alpha L), the values are mean z-score -0.17; z-score, replicate A = 0.15; z-score, replicate B = -0.43; z-score, replicate C = -0.24. Against PLXNA4 (plexin A4) #1, the entry reads mean z-score -1.66; z-score, replicate A = -1.4; z-score, replicate B = -1.67; z-score, replicate C = -1.92. PLXNA4 (plexin A4) #2 scored mean z-score 1.42; z-score, replicate A = 0.93; z-score, replicate B = 1.48; z-score, replicate C = 1.86.

DNAJC18 (DnaJ heat shock protein family (Hsp40) member C18) gave mean z-score 0.08; z-score, replicate A = 0.63; z-score, replicate B = -0.36; z-score, replicate C = -0.04. For CCNI (cyclin I), the entry reads mean z-score 0.03; z-score, replicate A = -0.04; z-score, replicate B = 0.05; z-score, replicate C = 0.06.

Ordered by “z-score, replicate A” (high to low): 2 of the entries above.
DNAJC18 (DnaJ heat shock protein family (Hsp40) member C18) → mean z-score = 0.08; z-score, replicate A = 0.63; z-score, replicate B = -0.36; z-score, replicate C = -0.04
CCNI (cyclin I) → mean z-score = 0.03; z-score, replicate A = -0.04; z-score, replicate B = 0.05; z-score, replicate C = 0.06

The list goes on:
Depletion of TSPAN10 (tetraspanin 10) gave: mean z-score -0.36; z-score, replicate A = -0.25; z-score, replicate B = -0.6; z-score, replicate C = -0.22. With knock-down of HES1 (hes family bHLH transcription factor 1), the record shows mean z-score 1; z-score, replicate A = 1.31; z-score, replicate B = 0.9; z-score, replicate C = 0.78. NXNL1 (nucleoredoxin like 1) gave mean z-score 1.28; z-score, replicate A = 1.83; z-score, replicate B = 0.67; z-score, replicate C = 1.33. Against THAP9 (THAP domain containing 9) the deposit lists mean z-score 0.12; z-score, replicate A = 0.12; z-score, replicate B = 0.01; z-score, replicate C = 0.23. With knock-down of BEND7 (BEN domain containing 7), the screen gave mean z-score 2.52 (active); z-score, replicate A = 2.1; z-score, replicate B = 2.91; z-score, replicate C = 2.55. Knock-down of MTMR7 (myotubularin related protein 7) came out at: mean z-score -0.61; z-score, replicate A = -0.33; z-score, replicate B = -0.77; z-score, replicate C = -0.73.

After knock-down of RPL10 (ribosomal protein L10), the record shows mean z-score -3.74; z-score, replicate A = -3.85; z-score, replicate B = -3.71; z-score, replicate C = -3.67. AMPD2 (adenosine monophosphate deaminase 2) showed mean z-score -0.68; z-score, replicate A = -0.84; z-score, replicate B = -0.54; z-score, replicate C = -0.65. HCG27 (HLA complex group 27) gave mean z-score -0.47; z-score, replicate A = -0.25; z-score, replicate B = -0.97; z-score, replicate C = -0.19. AGBL5 (AGBL carboxypeptidase 5) showed mean z-score -0.27; z-score, replicate A = -0.52; z-score, replicate B = -0.28; z-score, replicate C = 0. After knock-down of LINC01555 (long independently transcribed non-coding RNA 1555) the results were mean z-score -0.72; z-score, replicate A = -0.8; z-score, replicate B = -1.01; z-score, replicate C = -0.34. Against ADAMTS3 (ADAM metallopeptidase with thrombospondin type 1 motif 3), the entry reads mean z-score 0.37; z-score, replicate A = 0.54; z-score, replicate B = 0.41; z-score, replicate C = 0.15.

GPN2 (GPN-loop GTPase 2) showed mean z-score 1.22; z-score, replicate A = 1.4; z-score, replicate B = 1.07; z-score, replicate C = 1.19.
